Results: patent US20240226228A1, “ANTIMICROBIAL PEPTOID HAVING IMPROVED SELECTIVITY AND ANTIMICROBIAL COMPOSITION COMPRISING SAME” (priority 2021, published 2024)
Where a SMILES comes first, the peptide text is derived from it. [ ]: non-standard residue; d: D form. Gly(N(CH2)2(3-indolyl)) = O=C(O)CNCCc1c[nH]c2ccccc12; Gly(N-CH2CH2-imidazol-4-yl) = O=C(O)CNCCc1c[nH]cn1; Nspe = C[C@H](NCC(=O)O)c1ccccc1; Nlys = NCCCCNCC(=O)O

Each compound was assayed on red blood cells / E. coli (assay: Analysis of selectivity of peptoid (HD10 divided by MIC against E. coli)). Details: HD10 divided by MIC against E. coli.

Row | SMILES | Selectivity
1 | C[C@@H](c1ccccc1)N(CC(=O)N(CCCCN)CC(=O)N(CCc1c[nH]c2ccccc12)CC(=O)N(CCc1c[nH]c2ccccc12)CC(N)=O)C(=O)CN(CCCCN)C(=O)CN(CCCCN)C(=O)CN(C(=O)CN(C(=O)CN(CCCCN)C(=O)CN(C(=O)CN(C(=O)CNCCc1c[nH]cn1)[C@@H](C)c1ccccc1)[C@@H](C)c1ccccc1)[C@@H](C)c1ccccc1)[C@@H](C)c1ccccc1 [Peptoid 81] (H-[Gly(N-CH2CH2-imidazol-4-yl)][Nspe][Nspe][Nlys][Nspe][Nspe][Nlys][Nlys][Nspe][Nlys][Gly(N(CH2)2(3-indolyl))][Gly(N(CH2)2(3-indolyl))]-NH2) | >15.9
2 | C[C@@H](c1ccccc1)N(CC(N)=O)C(=O)CN(CCCCN)C(=O)CN(CCCCN)C(=O)CN(C(=O)CN(C(=O)CN(CCc1c[nH]cn1)C(=O)CN(C(=O)CN(C(=O)CN(CCCCN)C(=O)CN(CCc1c[nH]c2ccccc12)C(=O)CN(CCc1c[nH]c2ccccc12)C(=O)CNCCCCN)[C@@H](C)c1ccccc1)[C@@H](C)c1ccccc1)[C@@H](C)c1ccccc1)[C@@H](C)c1ccccc1 [Peptoid 74] (H-[Nlys][Gly(N(CH2)2(3-indolyl))][Gly(N(CH2)2(3-indolyl))][Nlys][Nspe][Nspe][Gly(N-CH2CH2-imidazol-4-yl)][Nspe][Nspe][Nlys][Nlys][Nspe]-NH2) | 13
3 | C[C@@H](c1ccccc1)N(CC(=O)N(CCCCN)CC(=O)N(CCc1c[nH]c2ccccc12)CC(=O)N(CCc1c[nH]c2ccccc12)CC(N)=O)C(=O)CN(CCCCN)C(=O)CN(CCCCN)C(=O)CN(C(=O)CN(C(=O)CN(CCc1c[nH]cn1)C(=O)CN(C(=O)CN(C(=O)CNCCCCN)[C@@H](C)c1ccccc1)[C@@H](C)c1ccccc1)[C@@H](C)c1ccccc1)[C@@H](C)c1ccccc1 [Peptoid 80] (H-[Nlys][Nspe][Nspe][Gly(N-CH2CH2-imidazol-4-yl)][Nspe][Nspe][Nlys][Nlys][Nspe][Nlys][Gly(N(CH2)2(3-indolyl))][Gly(N(CH2)2(3-indolyl))]-NH2) | >8.0

Same assay, conditions: Tables 11-13

Row | SMILES | Selectivity [HD10/MIC (E. coli)]
4 | C[C@@H](c1ccccc1)N(CC(N)=O)C(=O)CN(C(=O)CN(CCCCN)C(=O)CN(C(=O)CN(C(=O)CN(CCCCN)C(=O)CN(C(=O)CN(C(=O)CN(CCCCN)C(=O)CN(C(=O)CN(CCCCN)C(=O)CN(CCCCN)C(=O)CN(CCc1c[nH]c2ccccc12)C(=O)CNCCc1c[nH]c2ccccc12)[C@@H](C)c1ccccc1)[C@@H](C)c1ccccc1)[C@@H](C)c1ccccc1)[C@@H](C)c1ccccc1)[C@@H](C)c1ccccc1)[C@@H](C)c1ccccc1 [Peptoid 36] | 4.9
5 | C[C@@H](c1ccccc1)N(CC(N)=O)C(=O)CN(C(=O)CN(CCCCN)C(=O)CN(C(=O)CN(C(=O)CN(CCCCN)C(=O)CN(C(=O)CN(C(=O)CN(CCCCN)C(=O)CN(C(=O)CN(C(=O)CN(CCCCN)C(=O)CN(Cc1ccccc1)C(=O)CNCc1ccccc1)[C@@H](C)c1ccccc1)[C@@H](C)c1ccccc1)[C@@H](C)c1ccccc1)[C@@H](C)c1ccccc1)[C@@H](C)c1ccccc1)[C@@H](C)c1ccccc1)[C@@H](C)c1ccccc1 [Peptoid 43] | <0.2
6 | C[C@@H](c1ccccc1)N(CC(N)=O)C(=O)CN(CCCCN)C(=O)CN(C(=O)CN(C(=O)CN(CCCCN)C(=O)CN(C(=O)CN(C(=O)CN(CCCCN)C(=O)CN(C(=O)CN(CCCCN)C(=O)CN(CCCCN)C(=O)CN(C(=O)CNCCc1c[nH]c2ccccc12)[C@@H](C)c1ccccc1)[C@@H](C)c1ccccc1)[C@@H](C)c1ccccc1)[C@@H](C)c1ccccc1)[C@@H](C)c1ccccc1)[C@@H](C)c1ccccc1 [Peptoid 61] | 3.1
7 | C[C@@H](c1ccccc1)N(CC(N)=O)C(=O)CN(C(=O)CN(CCCCN)C(=O)CN(C(=O)CN(C(=O)CN(CCCCN)C(=O)CN(C(=O)CN(C(=O)CN(CCCCN)C(=O)CN(C(=O)CN(C(=O)CN(CCCCN)C(=O)CNCCc1c[nH]c2ccccc12)[C@@H](C)c1ccccc1)[C@@H](C)c1ccccc1)[C@@H](C)c1ccccc1)[C@@H](C)c1ccccc1)[C@@H](C)c1ccccc1)[C@@H](C)c1ccccc1)[C@@H](C)c1ccccc1 [Peptoid 3] | 1
8 | C[C@@H](c1ccccc1)N(CC(=O)N(CCCCN)CC(=O)N(CC(=O)N(CC(=O)N(CCCCN)CC(=O)N(CC(=O)N(CC(=O)N(CCCCN)CC(=O)N(CC(=O)N(CC(=O)N(CCc1c[nH]c2ccccc12)CC(N)=O)[C@@H](C)c1ccccc1)[C@@H](C)c1ccccc1)[C@@H](C)c1ccccc1)[C@@H](C)c1ccccc1)[C@@H](C)c1ccccc1)[C@@H](C)c1ccccc1)C(=O)CN(C(=O)CN(CCCCN)C(=O)CNCCc1c[nH]c2ccccc12)[C@@H](C)c1ccccc1 [Peptoid 5] (H-[Gly(N(CH2)2(3-indolyl))][Nlys][Nspe][Nspe][Nlys][Nspe][Nspe][Nlys][Nspe][Nspe][Nlys][Nspe][Nspe][Gly(N(CH2)2(3-indolyl))]-NH2) | <0.3
9 | C[C@@H](c1ccccc1)N(CC(N)=O)C(=O)CN(CCCCN)C(=O)CN(C(=O)CN(C(=O)CN(CCCCN)C(=O)CN(C(=O)CN(CCCCN)C(=O)CN(CCCCN)C(=O)CN(C(=O)CN(C(=O)CN(CCCCN)C(=O)CN(C(=O)CNCCc1c[nH]c2ccccc12)[C@@H](C)c1ccccc1)[C@@H](C)c1ccccc1)[C@@H](C)c1ccccc1)[C@@H](C)c1ccccc1)[C@@H](C)c1ccccc1)[C@@H](C)c1ccccc1 [Peptoid 62] | 5.7
10 | C[C@@H](c1ccccc1)N(CC(=O)N(CCCCN)CC(=O)N(CC(=O)N(CC(=O)N(CCCCN)CC(=O)N(CC(=O)N(CC(=O)N(CCCCN)CC(=O)N(CC(=O)N(CC(=O)N(CCCCN)CC(=O)N(CCCCN)CC(N)=O)[C@@H](C)c1ccccc1)[C@@H](C)c1ccccc1)[C@@H](C)c1ccccc1)[C@@H](C)c1ccccc1)[C@@H](C)c1ccccc1)[C@@H](C)c1ccccc1)C(=O)CNCCc1c[nH]c2ccccc12 [Peptoid 64] (H-[Gly(N(CH2)2(3-indolyl))][Nspe][Nlys][Nspe][Nspe][Nlys][Nspe][Nspe][Nlys][Nspe][Nspe][Nlys][Nlys]-NH2) | 5.7
